Compound potency records, mixed from different reports. Data source: NIAID ChemDB in PubChem.

Shared fields: tests in culture; agent: Cryptococcus neoformans; endpoint: MIC

Two numbers with a dash give a range or band.

smiles | strain | method | setting | result
O=C1/C(=C/c2ccc(O)cc2)COc2ccccc21 | 93/V |  |  | 6 µg/mL
C[C@@H](n1ncn(-c2ccc(OCC(F)(F)C(F)F)cc2)c1=O)[C@](O)(Cn1cncn1)c1ccc(F)cc1F | DUMC 114.95 |  |  | ≤0.0313 µg/mL
COc1cc2ccnc3c2c(c1OC(=O)c1ccc(OC(F)(F)F)cc1)N(C)C=C3 |  |  |  | 10 µg/mL
CO[C@@H]1[C@H]2OC(C)(C)O[C@H]2O[C@@H]1C1=NOC(C(C)=O)C1 |  |  |  | 25 µg/mL
CC(=O)c1ccc2c(c1O)C=CC(C)(C)O2 |  |  |  | 50 µg/mL
Clc1ccccc1CC(Cn1ccnc1)c1ccccc1Cl |  |  |  | <1 µg/mL
COc1cc(OC)c2c(O)c3c(c(-c4ccc5cc6c(c(O)c5c4O)C(=O)CC(C)(O)C6)c2c1)CC(C)OC3C |  |  |  | 2 µg/mL
Cn1c([N+](=O)[O-])cnc1N |  |  |  | >200 µg/mL
CCOC(=O)c1c(N)oc2cc(Cl)c(O)cc12 | KCCM 50564 | broth dilution |  | 6.3 µg/mL
CCCCCCCCCCCCC#CCCCCC(=O)O | ATCC66031 |  |  | <4.3 µM
COc1ccc(/C=C2\COc3ccc(-c4ccccc4)cc3C2=O)cc1 | Farwania |  |  | 25 µg/mL
CC1(C)O[C@H]2[C@@H](O1)[C@@H](C1=NOC(Cc3ccc(O)cc3)C1)O[C@@H]1OC(C)(C)O[C@@H]12 |  |  |  | 25 µg/mL
CC(C)(C)c1ccc(CC(Cc2ccc(-c3ccccc3)cc2)n2ccnc2)cc1 |  |  |  | 33 µM
CN[C@@H]1[C@H](O[C@@H]2OC[C@@H](O)[C@H](O)[C@H]2O)[C@@H](O)[C@H](O[C@H]2c3c(Br)c(C)c(C(=O)N[C@H](C)C(=O)O)c(O)c3-c3c(cc4c(c3O)C(=O)c3cc(OC)cc(O)c3C4=O)[C@@H]2O)O[C@@H]1C | IAM 4514 |  |  | >100 µg/mL
CCCCCOc1ccc(-c2cc(-c3ccc(C(=O)N[C@H]4C[C@@H](O)[C@@H](O)NC(=O)[C@@H]5[C@@H](O)[C@@H](C)CN5C(=O)[C@H]([C@H](O)CC(N)=O)NC(=O)[C@H]([C@H](O)[C@@H](O)c5ccc(O)c(OS(=O)(=O)O)c5)NC(=O)[C@@H]5C[C@@H](O)CN5C(=O)[C@H]([C@@H](C)O)NC4=O)cc3)no2)cc1 | 3 strains |  |  | >128 µg/mL
CCCCCCCCCCCCC(OC)C(=O)O | ATCC66031 |  |  | 110 µM
CC(C)(C)CSc1cc(=S)ss1 | ATCC 32264 |  |  | 6.25 µg/mL
COc1ccc(/C=C2\CS(=O)c3ccccc3C2=O)cc1 | Farwania |  |  | 50 µg/mL
C[C@H]1[C@H](O)[C@@H](C)/C=C/C=C/C=C/C=C/C=C/C=C/C=C/[C@H](O[C@@H]2O[C@H](C)[C@@H](O)[C@H](N)[C@@H]2O)C[C@@H]2O[C@](O)(C[C@@H](O)C[C@@H](O)CC[C@H](O)[C@@H](O)C[C@@H](O)CC(=O)O[C@H]1C)C[C@H](O)[C@H]2C(=O)O | D49 |  |  | 0.2 µg/mL
C[C@H]1N(C(=O)c2ccc(C(F)(F)F)cc2)CCO[C@@]1(Cn1cncn1)c1ccc(F)cc1F | 89-127 |  |  | 0.5 µg/mL
CC[C@H]1/C=C(\C)[C@H](O)[C@H](C)C[C@H](OC)[C@H]2O[C@@](O)(C(=O)C(=O)N3CCCC[C@H]3C(=O)O[C@H](/C(C)=C/[C@@H]3CC[C@@H](O)[C@H](OC)C3)[C@H](C)[C@@H](O)CC1=O)[C@H](C)C[C@@H]2OC | C20F2 |  |  | 50 µg/mL
CNC1C(C)OC(O[C@H]2c3cc(C)c(C(=O)NC(C)C(=O)O)c(OC)c3-c3c(cc4c(c3O)Cc3cc(OC)cc(O)c3C4=O)[C@@H]2O)C(O)C1OC1OCC(O)C(O)C1O | IAM 4514 |  |  | >100 µg/mL
COc1ccc(Cc2nc(N=C3NC(=O)N(C)C3=O)n(C)c2Cc2ccc(OC)cc2)cc1 |  |  |  | 12.5 µg/mL
CCSc1ssc(=S)c1OC | ATCC 32264 |  |  | 50 µg/mL
Cn1nc(Cc2ccc(Cl)cc2)c2ccccc2c1=O | ATCC 32264 | broth dilution |  | 7.8 µg/mL
C[C@H]1[C@H](O)[C@@H](C)/C=C/C=C/C=C/C=C/C=C/C=C/C=C/[C@H](O[C@@H]2O[C@H](C)[C@@H](O)[C@H](N)[C@@H]2O)C[C@@H]2O[C@](O)(C[C@@H](O)C[C@@H](O)CC[C@H](O)[C@@H](O)C[C@@H](O)CC(=O)O[C@H]1C)C[C@H](O)[C@H]2C(=O)O | ATCC 32045 | broth dilution |  | 0.25 µg/mL
C=C1C(=O)OCC1COC(=O)CCCCC | ATCC90112 |  |  | 25 µg/mL
CCSSc1ssc(=S)c1OC | ATCC 32264 |  |  | 12.5 µg/mL
Nc1[nH]c(=O)ncc1F | ATCC66031 | broth dilution | 72 h | 0.5 µg/mL
COc1cc2ccnc3c2c(c1OC(=O)c1cccc(C)c1)N(C)C=C3 |  |  |  | 20 µg/mL
Clc1ccc(CN(Cc2ccc(-c3ccccc3)cc2)n2ccnc2)c(Cl)c1 |  |  |  | 2.5 µM
Cn1c([N+](=O)[O-])cnc1S(C)=O |  |  |  | >200 µg/mL
CC1(O)CC(=O)c2c(cc3ccc(-c4ccc5cc6c(c(O)c5c4O)C(=O)CC(C)(O)C6)c(O)c3c2O)C1 |  |  |  | 4 µg/mL
C[C@H]1[C@H](O)[C@@H](C)/C=C/C=C/C=C/C=C/C=C/C=C/C=C/[C@H](O[C@@H]2O[C@H](C)[C@@H](O)[C@H](N)[C@@H]2O)C[C@@H]2O[C@](O)(C[C@@H](O)C[C@@H](O)CC[C@H](O)[C@@H](O)C[C@@H](O)CC(=O)O[C@H]1C)C[C@H](O)[C@H]2C(=O)O | TIMM1855 |  |  | 0.39 µg/mL
Clc1ccc(CC(Cn2ccnc2)c2c(Cl)cccc2Cl)cc1 |  |  |  | 100 µg/mL
COc1ccc2c(c1OC)CN1CCc3cc4c(cc3C1=C2)OCO4 | ATCC 36556 |  |  | 64 µg/mL
C[C@@H](c1ncncc1F)[C@](O)(Cn1cncn1)c1ccc(F)cc1F | Clinical isolate (IM 972724) | broth dilution |  | <0.015 µg/mL
CCCCCCCCCCSc1cc(=S)ss1 | ATCC 32264 |  |  | 125 µg/mL
Clc1ccc(C(Cc2c(Cl)cccc2Cl)Cn2ccnc2)c(Cl)c1 |  |  |  | <1 µg/mL
Cn1c([N+](=O)[O-])cnc1S(C)(=O)=O |  |  |  | >200 µg/mL
Fc1ccc(CC(Cc2ccc(-c3ccccc3)cc2)n2ccnc2)cc1 |  |  |  | 5.5 µM
CCCSc1cc(=S)ss1 | ATCC 32264 |  |  | 12.5 µg/mL
CC(C)N=C(N)c1ccc2nc(-c3ccc4c(c3)Cc3cc(-c5nc6ccc(C(N)=NC(C)C)cc6[nH]5)ccc3-4)[nH]c2c1 | H99 |  |  | 0.78 µg/mL
CCCn1c(-c2ccccn2)noc1=S |  |  |  | 0.22 µg/mL
Nc1[nH]c(=O)ncc1F | 2a |  |  | 0.5 µg/mL
CCn1c(-c2ccccn2)nsc1=O |  |  |  | 0.06 µg/mL
CCCCCCC#CCCCCCCCC(=O)O | ATCC66031 |  |  | 10.8 µM
CCCCCCCCCCCCCC(=O)O | ATCC66031 |  |  | 1900 µM
COc1ccc(/C=C2\COc3ccccc3C2=O)cc1 | 93/V |  |  | 50 µg/mL
CN[C@@H]1[C@H](O[C@@H]2OC[C@@H](O)[C@H](O)[C@H]2O)[C@@H](O)[C@H](O[C@H]2c3c(c(O)c(C(=O)N[C@H](C)C(=O)O)c(C)c3[N+](=O)[O-])-c3c(cc4c(c3O)C(=O)c3cc(OC)cc(O)c3C4=O)[C@@H]2O)O[C@@H]1C | IAM 4514 |  |  | >100 µg/mL
Cn1c(-c2ccccn2)noc1=S |  |  |  | 0.51 µg/mL
COc1cc2ccnc3c2c(c1OC(=O)c1ccccc1C)N(C)C=C3 |  |  |  | 20 µg/mL
CN[C@@H]1[C@H](O[C@@H]2OC[C@@H](O)[C@H](O)[C@H]2O)[C@@H](O)[C@H](O[C@H]2c3cc(C)c(C(=O)N[C@H](C)C(=O)O)c(O)c3-c3c(cc4c(c3O)C(=O)c3cc(OC)cc(O)c3C4=O)[C@@H]2O)O[C@@H]1C | IAM 4514 |  |  | 1.6 µg/mL
CN[C@@H]1[C@H](O[C@@H]2OC[C@@H](O)[C@H](O)[C@H]2O)[C@@H](O)[C@H](O[C@H]2c3cc(C)c(C(=O)N[C@H](C)C(=O)O)c(O)c3-c3c(cc4c(c3O)C(=O)c3cc(OC)c(C(=O)O)c(O)c3C4=O)[C@@H]2O)O[C@@H]1C | IAM 4514 |  |  | >100 µg/mL
COc1ccc(CC(Cc2ccc(-c3ccccc3)cc2)n2ccnc2)cc1 |  |  |  | 5.5 µM
COc1c(O)c2c(=O)cc(OC)c3c4c(OC)cc(=O)c5c(O)c(OC)c6c(c(c1CC(C)=C6OC(C)=O)c23)c54 |  |  |  | >100 µg/mL
Nc1scc2c1c(=O)oc1ccc3ccccc3c12 | IP 90526 | broth dilution |  | 4 µg/mL
Cn1ccnc1S(C)(=O)=O |  |  |  | >200 µg/mL
Cn1c(-c2ccccc2)nsc1=O |  |  |  | 0.06 µg/mL
CCCCCc1ccc(C(=O)Oc2c(OC)cc3ccnc4c3c2N(C)C=C4)cc1 |  |  |  | 5 µg/mL
COc1ccc(Cc2nc(N=C3NC(=O)N(C)C3=O)n(C)c2Cc2ccc(OC)c(O)c2)cc1 |  |  |  | 6.25 µg/mL
CCC(C)n1ncn(-c2ccc(N3CCN(c4ccc(OC[C@H]5CO[C@](Cn6cncn6)(c6ccc(Cl)cc6Cl)O5)cc4)CC3)cc2)c1=O | 3 strains |  |  | 0.015–0.25 µg/mL
CC1(C)O[C@H]2O[C@H](C3=NOC(Cc4ccc(O)cc4)C3)[C@H](OCc3ccccc3)[C@H]2O1 |  |  |  | 12.5 µg/mL
CCCCCCCCSc1cc(=S)ss1 | ATCC 32264 |  |  | 125 µg/mL
COC(=O)c1c(N)oc2c(C)c(C)c(O)c(Sc3ccc(C)c(C)c3)c12 | KCCM 50564 | broth dilution |  | 6.3 µg/mL
O=C1OC(O)(c2ccccc2O)c2cccc3cccc1c23 |  |  |  | 18.7 µM
Cc1ccc(-n2c(-c3ccccc3)nsc2=S)cc1 |  |  |  | 0.04 µg/mL
COc1cc(O)c2c(c1)C(=O)c1c(cc3c(c1O)-c1c(cc(C)c(C(=O)NC(CO)C(=O)O)c1O)[C@H](OC1OC(C)C(N(C)C)C(OC4OCC(O)C(O)C4O)C1O)[C@H]3O)C2=O | 1 isolates |  |  | 1.6 µg/mL
CO[C@@H]1[C@H]2OC(C)(C)O[C@H]2O[C@@H]1C1=NOC(CBr)C1 |  |  |  | 25 µg/mL

Again, the opening 5 rows:

O=C1/C(=C/c2ccc(O)cc2)COc2ccccc21 ; strain: 93/V ; result: 6 µg/mL
C[C@@H](n1ncn(-c2ccc(OCC(F)(F)C(F)F)cc2)c1=O)[C@](O)(Cn1cncn1)c1ccc(F)cc1F ; strain: DUMC 114.95 ; result: ≤0.0313 µg/mL
COc1cc2ccnc3c2c(c1OC(=O)c1ccc(OC(F)(F)F)cc1)N(C)C=C3 ; result: 10 µg/mL
CO[C@@H]1[C@H]2OC(C)(C)O[C@H]2O[C@@H]1C1=NOC(C(C)=O)C1 ; result: 25 µg/mL
CC(=O)c1ccc2c(c1O)C=CC(C)(C)O2 ; result: 50 µg/mL

Neighbouring rows are from separate reports. Blank or dashed fields: not listed here.